# In paper PMC7676316, “Complete Mapping of Mutations to the SARS-CoV-2 Spike Receptor-Binding Domain that Escape Antibody Recognition” (Cell Host & Microbe, 2021):
# Legend:
# [1] = molecular target: SARS-CoV-2 S6P_(ecto), spike ectodomain with 4 additional proline substitutions (SARS-CoV-2, Wuhan-Hu-1, UniProt P0DTC2, K986P | V987P)
# [2] = molecular target: SARS-CoV-1 Urbani RBD, unmutated, yeast-displayed (SARS-CoV-1 Urbani (GenBank AY278741), UniProt P59594)
Binder,binding result [1],binding result [2]
"COV2-2479 Fab (Fab, V domains shown) VH: QVQLVQSGAEVKKPGSSVKVSCKTSGDTSSSYTVGWVRQAPGQGLEWMGRIIPILGIAYSAQKFQGRLTITADKSTSTSYMELSSLRSEDTAVYYCARGVVAATPGWFDPWGQGTLVTVSS VL: EIVMTQSPATLSVSPGERVTLSCRASQSVSSNLAWYQQKPGQAPRLLIYGASTRATGIPARFSGGGSGTEFTLTISSLQSEDFAVYYCQQYNNFLTFGGGTKVEIK",binds,–
"COV2-2082 (human IgG) (antibody, V domains shown) VH: EVQLVESGGGVVRPGGSLRLSCAASGFIFDDYDMTWVRQAPGKGLEWVSGISWNGGNTGYADSVKGRFTISRDNAKNSLYLQMNSLRAEDTALYHCAVIMSPIPRYSGYDWAGGAFDIWGQGTMVTVSS VL: SSELTQDPAVSVALGQTVRITCQGDSLRSYYASWYQQKPGQVPILVIYDKNNRPSGIPDRFSGSSSGNTASLTITGAQAEDEADYYCNSRDSSGNAVVFGGGTKLTVL",–,binds
"COV2-2082 Fab (Fab, V domains shown) VH: EVQLVESGGGVVRPGGSLRLSCAASGFIFDDYDMTWVRQAPGKGLEWVSGISWNGGNTGYADSVKGRFTISRDNAKNSLYLQMNSLRAEDTALYHCAVIMSPIPRYSGYDWAGGAFDIWGQGTMVTVSS VL: SSELTQDPAVSVALGQTVRITCQGDSLRSYYASWYQQKPGQVPILVIYDKNNRPSGIPDRFSGSSSGNTASLTITGAQAEDEADYYCNSRDSSGNAVVFGGGTKLTVL",binds,–
